According to patent publication US20060115837A1 (WASHINGTON UNIVERSITY, published 2006):

Target: West Nile Virus envelope protein on WNV virions (West Nile Virus) (UniProt Q9Q6P4)
Assay: cell-based or functional assay

Substance: monoclonal antibody E60
- antibody-dependent enhancement of WNV infection of J774.2 murine macrophages (virus yield by plaque assay), 50 µg/ml mAb: 3000 fold
